Data published in ChEMBL document CHEMBL3124763, “Optimization of furin inhibitors to protect against the activation of influenza hemagglutinin H5 and Shiga toxin” (J Med Chem, 2014).

Protein sequences, listed by entry. Tags and fused reporters are not part of them. Residues count along the entry.
UniProt P09958, 108-794 limits assumed: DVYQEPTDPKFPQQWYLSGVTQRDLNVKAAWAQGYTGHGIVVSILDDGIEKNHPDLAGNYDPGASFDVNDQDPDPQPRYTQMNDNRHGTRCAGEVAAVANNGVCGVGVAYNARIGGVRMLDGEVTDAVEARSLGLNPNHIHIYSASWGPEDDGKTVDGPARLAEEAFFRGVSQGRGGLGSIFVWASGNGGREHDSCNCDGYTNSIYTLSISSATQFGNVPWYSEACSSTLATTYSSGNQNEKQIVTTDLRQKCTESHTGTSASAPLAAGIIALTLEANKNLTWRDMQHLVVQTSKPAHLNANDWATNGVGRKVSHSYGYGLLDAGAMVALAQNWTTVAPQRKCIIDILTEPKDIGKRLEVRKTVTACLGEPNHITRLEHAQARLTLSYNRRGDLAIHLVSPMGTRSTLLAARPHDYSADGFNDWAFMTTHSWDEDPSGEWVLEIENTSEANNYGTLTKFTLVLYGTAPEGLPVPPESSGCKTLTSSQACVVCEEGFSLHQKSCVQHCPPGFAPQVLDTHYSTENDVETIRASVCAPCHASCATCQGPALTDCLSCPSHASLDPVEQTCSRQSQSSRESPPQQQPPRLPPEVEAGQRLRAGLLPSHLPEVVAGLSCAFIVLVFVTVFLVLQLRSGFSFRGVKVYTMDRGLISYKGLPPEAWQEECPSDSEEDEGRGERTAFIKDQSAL

Experiments:
Plasma = assay: Half life in CD1 mouse plasma at 35 ug by HPLC analysis; conditions: strain CD1, Plasma
Furin = Furin (Homo sapiens, UniProt P09958); assay: Competitive inhibition of recombinant furin (unknown origin) using as substrate after 60 mins
Mus musculus = assay: Acute toxicity in iv dosed mouse; conditions: in vivo
[1] = Cytotoxicity against human HEK293FT cells after 24 hrs by MTT assay
[2] = Cytotoxicity against human HEK293FT cells at 100 uM after 4 hrs by LDH assay
[3] = Cellular uptake in human HT1080 cells at 10 uM after 1 hr by FACS analysis; conditions: ht-1080, 1 h
[4] = Cellular uptake in human HT1080 cells assessed as membrane binding at 10 uM after 1 hr by FACS analysis; conditions: ht-1080, 1 h

SMILES	t1/2 (Plasma)	Ki (Furin)	MTD (Mus musculus)	Activity [1]	Activity [2]	Drug uptake [3]	Drug uptake [4]
CC(=O)N[C@@H](CCCNC(=N)N)C(=O)N[C@@H](C)C(=O)N[C@@H](CCCNC(=N)N)C(=O)N[C@@H](CCCNC(=N)N)C(=O)NN(CCCNC(=N)N)CC(=O)N[C@@H](CCCCN)C(=O)N[C@@H](CCCCN)C(=O)N[C@@H](CCCNC(=N)N)C(=O)N[C@H](C(N)=O)[C@@H](C)O	0.95 h	123 nM	–	–	–	–	–
CC(=O)N[C@@H](CCCNC(=N)N)C(=O)N[C@@H](C)C(=O)N[C@@H](CCCNC(=N)N)C(=O)N[C@@H](CCCNC(=N)N)C(=O)N[C@@H](CCCNC(=N)N)C(=O)N[C@@H](CCCCN)C(=O)N[C@@H](CCCCN)C(=O)NCc1ccc(C(=N)N)cc1	8.6 h	1.9 nM	7 mg/kg	> 150 µM	< 5%	–	–
C[C@H](NC(=O)[C@H](CCCNC(=N)N)NC(=O)CCNC(=S)Nc1ccc2c(c1)C(=O)OC21c2ccc(O)cc2Oc2cc(O)ccc21)C(=O)N[C@@H](CCCNC(=N)N)C(=O)N[C@@H](CCCNC(=N)N)C(=O)N[C@@H](CCCNC(=N)N)C(=O)N[C@@H](CCCCN)C(=O)N[C@@H](CCCCN)C(=O)NN(CCCNC(=N)N)CC(=O)N[C@H](C(N)=O)[C@@H](C)O	–	–	–	–	–	96%	22%
CC(=O)N[C@@H](CCCN=C(N)N)C(=O)N[C@@H](C)C(=O)N[C@@H](CCCN=C(N)N)C(=O)NN(CCCN=C(N)N)CC(=O)N[C@@H](CCCN=C(N)N)C(=O)N[C@@H](CCCCN)C(=O)N[C@@H](CCCCN)C(=O)N[C@@H](CCCN=C(N)N)C(=O)N[C@H](C(N)=O)[C@@H](C)O	1 h	89 nM	–	–	–	–	–
CC(=O)NN(CCCN=C(N)N)CC(=O)N[C@@H](C)C(=O)N[C@@H](CCCN=C(N)N)C(=O)N[C@@H](CCCN=C(N)N)C(=O)N[C@@H](CCCN=C(N)N)C(=O)N[C@@H](CCCCN)C(=O)N[C@@H](CCCCN)C(=O)N[C@@H](CCCN=C(N)N)C(=O)N[C@H](C(N)=O)[C@@H](C)O	2.9 h	8 nM	> 10 mg/kg	> 100 µM	< 5%	–	–
C[C@H](NC(=O)CN(CCCNC(=N)N)NC(=O)CCNC(=S)Nc1ccc2c(c1)C(=O)OC21c2ccc(O)cc2Oc2cc(O)ccc21)C(=O)N[C@@H](CCCNC(=N)N)C(=O)N[C@@H](CCCNC(=N)N)C(=O)N[C@@H](CCCNC(=N)N)C(=O)N[C@@H](CCCCN)C(=O)N[C@@H](CCCCN)C(=O)NN(CCCNC(=N)N)CC(=O)N[C@H](C(N)=O)[C@@H](C)O	–	–	–	–	–	115%	14%
CC(=O)N[C@@H](CCCNC(=N)N)C(=O)N[C@@H](C)C(=O)NN(CCCNC(=N)N)CC(=O)N[C@@H](CCCNC(=N)N)C(=O)N[C@@H](CCCNC(=N)N)C(=O)N[C@@H](CCCCN)C(=O)N[C@@H](CCCCN)C(=O)N[C@@H](CCCNC(=N)N)C(=O)N[C@H](C(N)=O)[C@@H](C)O	1.16 h	18 nM	–	–	–	–	–
CC(=O)N[C@@H](CCCN=C(N)N)C(=O)N[C@@H](C)C(=O)N[C@@H](CCCN=C(N)N)C(=O)N[C@@H](CCCN=C(N)N)C(=O)N[C@@H](CCCN=C(N)N)C(=O)N[C@@H](CCCCN)C(=O)N[C@@H](CCCCN)C(=O)NC/C=C/CN=C(N)N	4.8 h	6 nM	> 10 mg/kg	> 150 µM	< 5%	–	–
CC(=O)N[C@@H](CCCNC(=N)N)C(=O)N[C@@H](C)C(=O)N[C@@H](CCCNC(=N)N)C(=O)N[C@@H](CCCNC(=N)N)C(=O)N[C@@H](CCCNC(=N)N)C(=O)NN(CCCCN)CC(=O)N[C@@H](CCCCN)C(=O)N[C@@H](CCCNC(=N)N)C(=O)N[C@H](C(N)=O)[C@@H](C)O	–	591 nM	–	–	–	–	–
C[C@H](NC(=O)[C@H](CCCNC(=N)N)NC(=O)CCNC(=S)Nc1ccc2c(c1)C(=O)OC21c2ccc(O)cc2Oc2cc(O)ccc21)C(=O)N[C@@H](CCCNC(=N)N)C(=O)N[C@@H](CCCNC(=N)N)C(=O)N[C@@H](CCCNC(=N)N)C(=O)N[C@@H](CCCCN)C(=O)N[C@@H](CCCCN)C(=O)NC/C=C/CNC(=N)N	–	–	–	–	–	265%	8%
CC(=O)N[C@@H](CCCN=C(N)N)C(=O)N[C@@H](C)C(=O)N[C@@H](CCCN=C(N)N)C(=O)N[C@@H](CCCN=C(N)N)C(=O)N[C@@H](CCCN=C(N)N)C(=O)N[C@@H](CCCCN)C(=O)N[C@@H](CCCCN)C(=O)NN(CCCN=C(N)N)CC(=O)N[C@H](C(N)=O)[C@@H](C)O	5.6 h	21 nM	10 mg/kg	> 150 µM	< 5%	–	–
C[C@H](NC(=O)[C@H](CCCNC(=N)N)NC(=O)CCNC(=S)Nc1ccc2c(c1)C(=O)OC21c2ccc(O)cc2Oc2cc(O)ccc21)C(=O)N[C@@H](CCCNC(=N)N)C(=O)N[C@@H](CCCNC(=N)N)C(=O)N[C@@H](CCCNC(=N)N)C(=O)N[C@@H](CCCCN)C(=O)N[C@@H](CCCCN)C(=O)NCc1ccc(C(=N)N)cc1	–	–	–	–	–	465%	0%
CC(=O)NN(CCCN=C(N)N)CC(=O)N[C@@H](C)C(=O)N[C@@H](CCCN=C(N)N)C(=O)N[C@@H](CCCN=C(N)N)C(=O)N[C@@H](CCCN=C(N)N)C(=O)N[C@@H](CCCCN)C(=O)N[C@@H](CCCCN)C(=O)NN(CCCN=C(N)N)CC(=O)N[C@H](C(N)=O)[C@@H](C)O	7.7 h	33 nM	10 mg/kg	> 150 µM	< 5%	–	–
